Results of unrelated studies side by side (data: NIAID ChemDB).

All rows: whole-cell or culture tests; species: Hepatitis C virus

An empty or dashed field is not shown. Rows are shuffled and stem from different studies. ECn is the concentration giving n% inhibition of infection, replication or growth. Two numbers with a dash give a range or band.

compound | strain | read-out | cell line | conditions | method | result
CN(C)S(=O)(=O)NC(=O)c1ccc2c(C3CCCCC3)c3n(c2c1)C[C@@H](C(=O)N1CCC(N2CCCC2)CC1)Cc1ccccc1-3 | - | EC50 | Huh7 | - | replicon | 0.01–1 µM
C=CC1CC1(NC(=O)[C@@H]1C[C@@H](Oc2cc(-c3ccccc3)nc3cc(OC)ccc23)CN1C(=O)[C@@H](NC(=O)OC1CCCC1)C(C)(C)C)C(=O)NS(=O)(=O)C1(C)CC1 | 1b | EC50 | Huh7 | - | replicon | <0.05 µM
O=C(O)/C=C/c1ccc(NC(=O)C2(NC(=O)c3ccc4c(c3)nc(-c3ccoc3)n4C3CCCCC3)CCNCC2)cc1 | - | EC50 | Huh7 | - | - | ≤5 µM
C=C[C@]1(CO)O[C@@H](n2ccc(N)nc2=O)[C@H](O)[C@@H]1O | - | EC50 | Huh7 | - | replicon | <20 µM
C=CC1CC1(NC(=O)[C@@H]1C[C@@H](Oc2cc(-c3ccccc3)nc3cc(OC)ccc23)CN1C(=O)[C@@H](NC(=O)CC1CC1)C(C)(C)C)C(=O)NS(=O)(=O)C1(C)CC1 | 1b | EC50 | Huh7 | - | replicon | <0.05 µM
O=C(Nc1ccc(Cl)c(Cl)c1)c1cc(-n2cccc2)n(-c2ccccc2)n1 | Con1 (gt 1b) | EC50 | Huh 5-2 | - | luciferase / replicon | 39.8 µM
Nc1ncnc2c1ncn2C1C[C@H]2C[C@@H]1[C@@H]1CSC[C@H]21 | 1b | EC50 | Huh | - | replicon | 81 µM
CNC(=O)c1c(-c2ccc(F)cc2)oc2cc(N(C)S(C)(=O)=O)c(OCc3cc(C)on3)cc12 | - | EC50 | Huh7 | - | replicon | <1 µM
O=C(Nc1ccc(CN2CCS(=O)(=O)CC2)cc1)c1ccc(-c2cc(NC(=O)C3CC3)ccc2F)cc1 | 1b | EC50 | - | - | replicon | >25 µM
O=C(Nc1ccc(Cl)cc1)c1cc(-n2cccc2)n(-c2ccc(Cl)cc2)n1 | Con1 (gt 1b) | EC50 | Huh 5-2 | - | luciferase / replicon | 35.4 µM
C[C@@]1(O)[C@H](O)[C@@H](CO)O[C@H]1n1cnc2c(N)ncnc21 | - | EC50 | Huh7 | - | replicon | 1.8 µM
COC(=O)c1ccc2c(C3CCCCC3)c3n(c2c1)CC(=O)N(CCN(C)C)c1ccccc1-3 | - | EC50 | Huh7 | - | replicon | 1–10 µM
CNC(=O)c1c(-c2ccc(F)c(O)c2)oc2ccc(OC(C)C)cc12 | - | EC50 | Huh7 | - | replicon | <30 µM
Cc1cc(=O)oc2cc(NC(=O)[C@@H](C)NC(=O)c3ccc4c(c3)nc(-c3ccoc3)n4C3CCCCC3)ccc12 | - | EC50 | Huh7 | - | - | ≤5 µM
NC(=S)NCc1cccc(-c2ccccc2)c1 | - | EC50 | Huh7 | - | replicon | <1 µM
CC#C[C@]1(CO)O[C@@H](n2ccc(=O)[nH]c2=O)[C@H](O)[C@@H]1O | - | EC50 | Huh7 | - | replicon | <20 µM
CNC(=O)c1c(-c2ccc(F)cc2)oc2cc(C(C)=O)c(OC)cc12 | - | EC50 | Huh7 | - | replicon | <1 µM
CNC(=O)c1c(-c2ccc(F)cc2)oc2cc(N(CCO)S(C)(=O)=O)c(C3CC3)cc12 | 1b | EC50 | Huh7 | - | - | 0.009 µM
NC(=S)NC(c1ccccc1)(c1ccccc1)c1ccccc1 | - | EC50 | Huh7 | - | replicon | <1 µM
C=C[C@H]1C[C@@]1(NC(=O)[C@@H]1C[C@@H](Oc2cc(-c3ccccc3)nc3cc(OC)ccc23)CN1C(=O)[C@@H](NC(=O)OC(C)(C)C)C(C)(C)C)C(=O)NS(=O)(=O)C1(CCCC)CC1 | 1b | EC50 | Huh7 | - | replicon | <0.05 µM
O=C(NC1CC1)c1ccc(F)c(Cn2c(C(=O)NS(=O)(=O)C3CC3)c(-c3ccc[nH]c3=O)c3c4occc4c(F)cc32)c1 | - | EC50 | - | - | replicon | >1.5 µM
C=C[C@H]1C[C@@]1(NC(=O)[C@@H]1C[C@@H](Oc2cc(-c3ccccc3)nc3cc(OC)ccc23)CN1C(=O)[C@@H](NC(=O)OC(C)(C)C)C(C)(C)C)C(=O)NS(=O)(=O)C1(Cc2ncoc2-c2ccccc2)CC1 | 1b | EC50 | Huh7 | - | replicon | <0.05 µM
O=C(Nc1ccc(CN2CCS(=O)(=O)CC2)cc1)c1ccc(-c2cc(NC(=O)C3CC3)ccc2Cl)cc1 | 1b | EC50 | - | - | replicon | 0.18 µM
O=C(O)/C=C/c1ccc(NC(=O)C2(NC(=O)c3ccc4c(C5CCCCC5)c5n(c4c3)CCCCN(CCO)c3ccncc3-5)CCCC2)cc1 | - | EC50 | Huh7 | - | replicon | 0.01–1 µM
Cc1cc(NC(N)=S)ccc1N1CCCCC1 | - | EC50 | Huh7 | - | replicon | <1 µM
CN(C)CCNC(=O)C1=Cc2ccccc2-c2c(C3CCCCC3)c3ccc(C(=O)O)cc3n2C1 | - | EC50 | Huh7 | - | replicon | 0.01–1 µM
CNC(=O)c1c(-c2ccc(Br)c(F)c2)oc2ccc(OC(C)C)cc12 | - | EC50 | Huh7 | - | replicon | <10 µM
CCCCC#Cc1ccc(NC(N)=S)cc1C(F)(F)F | - | EC50 | Huh7 | - | replicon | <1 µM
CN(C)S(=O)(=O)NC(=O)c1ccc2c(C3CCCCC3)c3n(c2c1)CC(C(=O)N1CCOCC1)=Cc1ccc(Cl)cc1-3 | - | EC50 | Huh7 | - | replicon | 1–10 µM
COc1cc2c(C(=O)NC3CC3)c(-c3ccc(F)cc3)oc2cc1-c1c(C)noc1C | - | EC50 | Huh7 | - | replicon | <1 µM
N#C[C@]1(CO)O[C@@H](n2ccc(=O)[nH]c2=O)[C@H](O)[C@@H]1O | - | EC50 | Huh7 | - | replicon | >20 µM
C=C[C@H]1C[C@@]1(NC(=O)[C@@H]1C[C@@H](Oc2cc(-c3ccccc3)nc3cc(OC)ccc23)CN1C(=O)[C@@H](NC(=O)OC(C)(C)C)C(C)(C)C)C(=O)NS(=O)(=O)C1(Cl)CC1 | 1b | EC50 | Huh7 | - | replicon | <0.05 µM
O=C(O)c1ccc2c(C3CCCCC3)c3n(c2c1)CCN(CCN1CCCCC1)c1ccccc1-3 | - | EC50 | Huh7 | 10% FBS | replicon | 0.035 µM
O=C(O)c1ccc2c(C3CCCCC3)c3n(c2c1)CC(C(=O)N1CCOCC1)=Cc1ccncc1-3 | - | EC50 | Huh7 | - | replicon | 1–10 µM
N#Cc1c(C(=O)Nc2ccc(Cl)cc2)nn(-c2ccc(Cl)cc2)c1-n1cccc1 | Con1 (gt 1b) | EC90 | Huh 5-2 | - | luciferase / replicon | 151.7 µM
Nc1ccccc1S(=O)(=O)NC(=O)c1c(-c2ccc[nH]c2=O)c2c3occc3c(F)cc2n1Cc1ccccc1F | - | EC50 | - | - | replicon | 0.5–1.5 µM
Nc1c(Cl)ncnc1NC1C[C@H]2C[C@@H]1c1ccsc12 | 1b | EC50 | Huh | - | replicon | 38 µM
CC#C[C@]1(CO)O[C@@H](n2ccc(N)nc2=O)[C@H](O)[C@@H]1O | - | EC50 | Huh7 | - | replicon | >20 µM
NC(=S)Nc1ccc(N2CCCCC2)c(C(F)(F)F)c1 | - | EC50 | Huh7 | - | replicon | <1 µM
Cc1nc2c(s1)CCCn1c-2c(C2CCCCC2)c2ccc(C(=O)O)cc21 | - | EC50 | Huh7 | - | replicon | >10 µM
Cc1cccc(Cn2c(C(=O)NS(=O)(=O)C(C)C)c(-c3ccc[nH]c3=O)c3c4occc4ccc32)c1F | - | EC50 | - | - | replicon | 0.5–1.5 µM
NC(=S)Nc1ccc(N2CCc3ccccc3C2)c(F)c1 | - | EC50 | Huh7 | - | replicon | <1 µM
C[C@H](NC(=O)c1ccc2c(c1)nc(-c1ccoc1)n2C1CCCCC1)C(=O)Nc1ccc(/C=C/C(=O)O)cc1 | - | EC50 | Huh7 | - | - | 5–50 µM
NC(=O)c1ccc(F)c(Cn2c(C(=O)O)c(-c3ccc[nH]c3=O)c3c4occc4ccc32)c1 | - | EC50 | - | - | replicon | <0.5 µM
CN(C)CCCOc1ccc(NC(=O)C2CC2)cc1-c1ccc(C(=O)Nc2ccc(CN3CCS(=O)(=O)CC3)cc2)cc1 | 1b | EC50 | - | - | replicon | 8.35 µM
COc1ccc2c(O[C@@H]3C[C@H]4C(=O)N[C@]5(C(=O)NS(=O)(=O)C6CC6)CC5(F)/C=C\CCCCN(C)C(=O)[C@@H]4C3)cc(-c3nc(C(C)C)cs3)nc2c1C | - | EC50 | Huh7 | genotype 1b | luciferase | >25 µM
Clc1ncnc2c1ncn2C1C[C@H]2C[C@@H]1[C@H]1CSC[C@@H]21 | 1b | EC90 | Huh | - | replicon | >17 µM
NC(=S)NCc1ccc(-c2ccccc2)cc1 | - | EC50 | Huh7 | - | replicon | <1 µM
CN1CCn2c(c(C3CCCCC3)c3ccc(C(=O)O)cc32)-c2ccccc21 | - | EC50 | Huh7 | 10% FBS | replicon | 0.59 µM
CNC(=O)c1c(-c2ccc(F)cc2)oc2cc(-c3ccncc3)c(OC(C)C)cc12 | - | EC50 | Huh7 | - | replicon | <10 µM
Cc1c(C(=O)Nc2ccc(Cl)cc2)nn(-c2ccc(Cl)cc2)c1-n1cccc1 | Con1 (gt 1b) | EC50 | Huh 5-2 | - | luciferase / replicon | 13.6 µM
NC(=S)Nc1ccc2c(c1)OC(c1ccccc1)O2 | - | EC50 | Huh7 | - | replicon | <1 µM
O=c1ccn([C@@H]2OC(CO)(CO)[C@@H](O)[C@H]2O)c(=O)[nH]1 | - | EC50 | Huh7 | - | replicon | >20 µM
CC(NC(N)=S)c1ccc(OCc2ccccc2)cc1 | - | EC50 | Huh7 | - | replicon | <1 µM
Cc1ccc(NC(=O)NC2CCCCC2)cc1-c1ccc(C(=O)Nc2ccc(CN3CCS(=O)(=O)CC3)cc2)cc1 | 1b | EC50 | - | - | replicon | 0.09 µM
CS(=O)(=O)NC(=O)c1c(-c2ccc[nH]c2=O)c2c3ccccc3ccc2n1Cc1cccc(C(=O)O)c1 | - | EC50 | - | - | replicon | >10 µM
CN1Cc2ccccc2-c2c(C3CCCCC3)c3ccc(C(=O)O)cc3n2C1=O | - | EC50 | Huh7 | - | replicon | >10 µM
CSc1ccc2cc(Cn3c(C(=O)O)c(-c4ccc[nH]c4=O)c4c5occc5c(F)cc43)c(Cl)nc2c1 | - | EC50 | - | - | replicon | <0.5 µM
C=CC1C[C@@]1(NC(=O)[C@@H]1C[C@@H](Oc2cc(-c3ccccc3)nc3cc(OC)ccc23)CN1C(=O)[C@@H](NC(=O)Oc1ccc(C)cc1)C(C)(C)C)C(=O)NS(=O)(=O)C1(Cc2ccccc2)CC1 | 1b | EC50 | Huh7 | - | replicon | 0.5–5 µM
Clc1ncnc2c1ncn2C1C[C@H]2C[C@@H]1c1cscc12 | 1b | EC90 | Huh | - | replicon | >16 µM
O=C(O)c1c(-c2ccc[nH]c2=O)c2c3c(ccc2n1Cc1ccccc1F)CCCO3 | - | EC50 | - | - | replicon | <1 µM
C=CC1CC1(NC(=O)[C@@H]1C[C@@H](Oc2cc(-c3ccccc3)nc3cc(OC)ccc23)CN1C(=O)[C@@H](NC(=O)OC(C)(C)C)C(C)(C)C)C(=O)NS(=O)(=O)C1(C(=O)Nc2ccccc2)CC1 | 1b | EC50 | Huh7 | - | replicon | 0.05–0.5 µM
COC(=O)NC[C@H](C(=O)N1CCCC1c1ncc(-c2ccc(-c3ccc(-c4cnc(C5CCCN5C(=O)[C@@H](NC(=O)OC)C(C)C)[nH]4)cc3)cc2)[nH]1)C(C)C | 1b | EC90 | Huh7 | - | - | 0.00005 µM
O=C(O)/C=C/c1ccc(NC(=O)C2(NC(=O)c3ccc4c(c3)nc(-c3ccoc3)n4C3CCCCC3)CC2)cc1 | - | EC50 | Huh7 | - | - | 5–50 µM
CNC(=O)c1c(-c2ccoc2)oc2ccc(OC)cc12 | - | EC50 | Huh7 | - | replicon | <30 µM
C=C[C@H]1C[C@@]1(NC(=O)[C@@H]1C[C@@H](Oc2cc(C3CC3)nc3cc(Cl)ccc23)CN1C(=O)[C@@H](NC(=O)OC(C)(C)C)C(C)(C)C)C(=O)OCC | 1b | EC50 | Huh7 | - | replicon | 0.05–0.5 µM

A second listing of 6 rows from above:

| compound | strain | read-out | cell line | conditions | method | result |
|---|---|---|---|---|---|---|
| CN1Cc2ccccc2-c2c(C3CCCCC3)c3ccc(C(=O)O)cc3n2C1=O | - | EC50 | Huh7 | - | replicon | >10 µM |
| CNC(=O)c1c(-c2ccc(F)cc2)oc2cc(-c3ccncc3)c(OC(C)C)cc12 | - | EC50 | Huh7 | - | replicon | <10 µM |
| C=C[C@H]1C[C@@]1(NC(=O)[C@@H]1C[C@@H](Oc2cc(-c3ccccc3)nc3cc(OC)ccc23)CN1C(=O)[C@@H](NC(=O)OC(C)(C)C)C(C)(C)C)C(=O)NS(=O)(=O)C1(Cl)CC1 | 1b | EC50 | Huh7 | - | replicon | <0.05 µM |
| NC(=S)NCc1ccc(-c2ccccc2)cc1 | - | EC50 | Huh7 | - | replicon | <1 µM |
| O=C(Nc1ccc(CN2CCS(=O)(=O)CC2)cc1)c1ccc(-c2cc(NC(=O)C3CC3)ccc2Cl)cc1 | 1b | EC50 | - | - | replicon | 0.18 µM |
| C=CC1CC1(NC(=O)[C@@H]1C[C@@H](Oc2cc(-c3ccccc3)nc3cc(OC)ccc23)CN1C(=O)[C@@H](NC(=O)OC(C)(C)C)C(C)(C)C)C(=O)NS(=O)(=O)C1(C(=O)Nc2ccccc2)CC1 | 1b | EC50 | Huh7 | - | replicon | 0.05–0.5 µM |